Human monoclonal antibodies against the spike receptor-binding domain (heavy:light variable regions). IC50 against pseudoviruses bearing the spike of naturally observed variants; lower = stronger; >10 µg/ml means not reached at the top dose. No active / inactive call. The stated detection limit is 0.0005 µg/ml; values near or below 0.001 µg/ml lie at the floor of the assay.
Tests used:
Experiment in all cases: pseudovirus neutralization IC50; higher = weaker neutralization
[1] = target: SARS-CoV-2 Omicron BA.1 spike pseudovirus
Method: (§1)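 Single-round VSV luciferase pseudovirus mixed with antibody dilutions for 1 h and put on Huh-7 cells for about a day; IC50 from the dose curve.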

[2] = target: SARS-CoV-2 Omicron BA.2 spike pseudovirus
Method: as §1

[3] = target: SARS-CoV-2 Omicron BA.2.75 spike pseudovirus
Method: as §1

[4] = target: SARS-CoV-2 Omicron BA.5 spike pseudovirus
Method: as §1

[5] = target: SARS-CoV-2 Omicron BQ.1.1 spike pseudovirus
Method: as §1

[6] = target: SARS-CoV-2 Omicron XBB spike pseudovirus
Method: as §1

[7] = target: SARS-CoV-2 early D614G spike pseudovirus
Method: as §1

Row | Binder | pseudovirus neutralization IC50 [1] [µg/mL] | pseudovirus neutralization IC50 [2] [µg/mL] | pseudovirus neutralization IC50 [3] [µg/mL] | pseudovirus neutralization IC50 [4] [µg/mL] | pseudovirus neutralization IC50 [5] [µg/mL] | pseudovirus neutralization IC50 [6] [µg/mL] | pseudovirus neutralization IC50 [7] [µg/mL]
1 | BD55-6561 (protein) chain 1: VQLVQSGSELKKPGASVKISCKASGYTFTDYSMNWVRQAPGRGLEWMGWINTNTGNPAYAQAFAGRCVLSLDTSVNTAYLHISRLEADDTALYYCARDRDVLRGAMGGFAPWGQGTLVTVSS chain 2: SYVLTQPPSVSVAPGKTARITCGGNEIGSKSVHWYQQKPGQAPVLVIYYDSDRPSGIPERFSGSNSGNTATLTISRVDAGDEADYFCQVWDSDINQVLFGGGTKLTVL | > 10 | > 10 | > 10 | > 10 | > 10 | > 10 | > 10
2 | BD55-6565 (protein) chain 1: QEQLVESGGGVVQPGRSLRLSCAASGFSFNDYAMHWVRQAPGRGLEWVAVISHDGSHKYDVDSVKGRFIVSRDNSKNTLYLQMNSVRVEDTAVYYCARVNGARGYGSGSYYTFYFYGMDVWGQGTTVTVS chain 2: DIQMTQSPSSLSASVGDRVTITCRASQDINSYLNWYQVKPGKAPKLLIYGASDLQSGVPSRFSGSGSGTDFTLTISSLRPEDFATYYCQQTYSTPPFAFGPGTKVDIK | > 10 | > 10 | > 10 | > 10 | > 10 | > 10 | > 10
3 | BD55-6567 (protein) chain 1: QVTLKESGPVLVKPTETLTLTCTVSGFSLSDVRMGVSWIRQPPGKALEWLAHIFSNDEKSYSTSLKSRLTISKDTSKSQVVLTMTNMDPVDTATYYCARTAPSLYYSDSSGPYYYYYGMDVWGQGTTVTVSS chain 2: DIQVTQSPSSLSASVGDRVTITCRASQSISNYFNWYQQKPGKAPTLLIYAASTLQSGVPSRFSGSGSGTHFTLTISSLQPEDFASYYCQQTYGNTLTFGQGTKLEIK | > 10 | > 10 | > 10 | > 10 | > 10 | > 10 | > 10
4 | BD55-6575 (protein) chain 1: EVQLVESGGNLVQPGGSLRLSCGVSGFTFSSYAMHWVRQAPGKALEYVSSITSNGGGTFYADSVKGRFTISRDTFKNTVYLQMGSLRVEDTAVYYCAREASTWDVVLDYWGQGTLVTVSS chain 2: DIQMTQSPSSLSASVGDRVTITCRAGQSISTYLNWYQQKPGKAPKLLIYAASSLQSGVPSRFSGSGSGTDFTLTISSLQPEDFATYYCQQSYITPMYTFGQGTKLEIK | > 10 | > 10 | > 10 | > 10 | > 10 | > 10 | > 10
5 | BD55-6578 (protein) chain 1: EVHLAESGGGLVMPGGSLRLSCAASGFTFSTYSMNWVRQAPGKGLEWVSGISSSGSLIFYADSVKGRFTISRDNAKNSLFLQMNSLRDEDTAVYYCARESHITMDTTFDSWGQGTPVTVSS chain 2: DIQMTQSPSSLSASVGDRVIITCRASQSLNRHLNWYQQKPGKAPKLLIYSASSLQTGVPLRFSGSGSGTDFTLTISSLQPEDFATYYCQQSYSSPPGPGTFGQGTRLEIK | > 10 | > 10 | > 10 | > 10 | > 10 | > 10 | 4.66
6 | BD55-1270 (protein) chain 1: EVQLVESGGGLIQPGGSLRLSCAASGFTFSRFDMHWVRQTTGQGLEWVSAIGTAGDTYYSDSVKGRFTISRENGKNSFFLQMKSVRAGDTAVYYCARGDLTGITWYFDLWGRGTLVTVSS chain 2: DIQMTQSPSSLSASVGERVTITCRASQTIGKYLHWYQLKPRKAPNLLIYDATSLQSGVPSRFSGSGSGTEFTLTITSLQPEDLATYYCQQSYTMPPVTFGGGTKVEI | > 10 | > 10 | > 10 | > 10 | > 10 | > 10 | > 10
7 | BD55-6583 (protein) chain 1: QVQLVQSGAEVKKPGASVKVSCKASGYTFTGHDINWVRQATGQGLEWMGWVSPNSGDTGYAHNFQGRVSMTRDTSMNTAYLELNSLRSEDTAVYYCAIYSGSGKFYPDYYYGFDVWGPGTPVTVSS chain 2: DIQMTQSPSSLSASVGDRVTITCRTRQSISDHLNWYQQRPGKAPKLLIYAASSLKSGVPSRFSGSGSGTDFTLTINSLQPEDFATYYCQQSYSTPPTFGQGTKLEIK | > 10 | > 10 | > 10 | > 10 | > 10 | > 10 | > 10
8 | BD55-6589 (protein) chain 1: EVQLVQSGPEVKKPGESLKISCTGFGDTFTNYWIAWVRQTPGKGLEWMGVIYPGDSDTRYSPSFQGQVIISADKSISTAYLQWSSLKASDTAMYYCGRLKHGYLYGIVDYWGQGTLVTVSS chain 2: DIVMTQSPDSLAVSLGERATIKCKSSQSVLYSSNNKNYLAWYQQKPGQPPKLLIYWASTRESGVPDRFSGSGSGTDFTLTISSLQAEDVAVYYCQQYSSTSCTFGQGTKLEIK | > 10 | > 10 | > 10 | > 10 | > 10 | > 10 | > 10
9 | BD55-6591 (protein) chain 1: EVQLVQSGAEVKKPGESLKISCKASGYRFSSYWIAWVRQVPGKGPEWMGVIYPGDSDTRYSPSFQGQVTFSADKSANTAYLQWSSLKASDTAMYYCARHAGALQSIDWQNNGMDVWGQGTTVTVSS chain 2: DIQMTQSPSSLSASVGDRVTITCRASLSIGTYLHWYQQKPGKAPKLLIFAASSLQSGVPSRFSGGGSGTDFTLTISSLQPEDSATYYCQQSYSTPSWTFGQGTKVEIK | > 10 | > 10 | > 10 | > 10 | > 10 | > 10 | > 10
10 | BD55-6595 (protein) chain 1: EVQLAQSGAEVKKPGESLRISCKGSEYSSTNYWISWVRQMPGKGPEWIGRIYPGDSYTTYNPSFQGHVTISADKSISTAYLQWSSLKASDTAMYYCASQQVERMGYYYMDVWGEGTTVTVSS chain 2: DIQMTQSPSSLSASVGDRVTITCRASQTISNYLNWYQQKPGKAPKLLIYEASTLQSGVPSRFGGSGSGTDFTLTISSLQPEDFATYYCQQSYTTPTWTFGQGTKVEIK | > 10 | > 10 | > 10 | > 10 | > 10 | > 10 | > 10
11 | BD55-6598 (protein) chain 1: QVQLVQSGAEVKKPGASVKVSCKASGYTFSNYGISWVRQAPGQGLEWMGWISGYSGKTDYAQKFQGRVTVTTDTSPSTAYMELRSLRPDDTAVYYCVRDRYSYLYSDYEPFDSWGQGTLVTVSS chain 2: DVVMTQSPLSLPVTLGQPASISCRSSQSLVYSDGNIFLSWFHQRPGQSPRRLIYKVSNRDSGVPDRFSGSGSGTDFTLKISRVEAEDVGVYYCMQGTHWPRTFGQGTRMEIK | 3.6 | 8.91 | 3.11 | 7.01 | 3.02 | > 10 | 3.78
12 | BD55-6604 (protein) chain 1: QVQLVQSGAEVRKPGASVKVSCKASGYIFTSYDINWVRQATGQGLEWMGWVNPNSGDTGYAHKFQGRVTMTGDTSISTAYMELSGLTSEDTAVYYCTIGASLPKYYYGSGSHWGQGTLVTVSS chain 2: DIQMTQSQSSLSASVGDRVTITCRASQTINYYLNWYQQKPGKAPKLLIHAASTLQSGVPSRFSGSGSGTDFTLTISSLQPEDFATYYCQQSYSFPYTFGQGTKLEIK | > 10 | > 10 | > 10 | > 10 | > 10 | > 10 | > 10

Reference: the supplement of paper PMC9931576
